Compound potency records, mixed from different reports. Data source: NIAID ChemDB in PubChem.

Common to all: growth or infection tests; species: HIV-1; read by: luciferase; read-out: EC50

Conditions beyond the fields shown may differ between rows. ECn is the concentration giving n% inhibition of infection, replication or growth.

{"smiles": "Nc1nc2c(c(F)cn2C[C@H](CF)OCP(=O)(O)O)c(=O)[nH]1", "strain": "NL4-3", "cells": "PBMC", "result": ">100 µM"}
{"smiles": "CC(=O)N1CCC(C(=O)N(CCCN2CCC(Cc3ccc(C(N)=O)cc3)CC2)c2ccc(C)c(Cl)c2)CC1", "strain": "R5 subtype E_3 recombinant", "cells": "U87 (CD4+ CCR5+) + U87", "result": "0.0064 µM"}
{"smiles": "O=C1CCCN1CCCN1CC(=O)N2CC(N(CCOc3ccccc3)S(=O)(=O)c3cccc(F)c3)C[C@H]2C1=O", "strain": "PLAI-JRFL PID2-18B", "cells": "TZM-bl", "result": "19.8 µM"}
{"smiles": "Nc1nc2c(c(F)cn2C[C@@H](CF)OCP(=O)(O)O)c(=O)[nH]1", "strain": "BaL", "cells": "TZM-bl", "result": ">100 µM"}
{"smiles": "Cc1cc(C#N)cc(C)c1Oc1nc(Nc2ccc(C#N)cc2)nc(N)c1Br", "strain": "Clinical isolate", "cells": "HEK293T", "setting": "clinical isolate", "result": "0.00179 µM"}
{"smiles": "O=c1[nH]cnc2c1ncn2[C@H]1CC[C@@H](CO)O1", "mutations": "RT-M184V", "strain": "Recombinant", "cells": "HeLa", "result": "6.33 µM"}
{"smiles": "COc1ccc(-n2c(C)nnc2SCC(=O)Nc2ccc(C)cc2Cl)c2ccccc12", "mutations": "RT-Y188L", "strain": "NL4-3", "cells": "HeLa + HeLa-JC53", "result": "0.24 µM"}
{"smiles": "C[C@H](Cn1cnc2c(N)ncnc21)OCP(=O)(O)O", "strain": "BaL", "cells": "PBMC", "result": "1.69 µM"}
{"smiles": "NS(=O)(=O)c1ccc(NC(=O)CSc2nnc(C(F)(F)F)n2-c2cccc3ccccc23)c(Cl)c1", "mutations": "RT-Y188L", "strain": "NL4-3", "cells": "HeLa + HeLa-JC53", "result": "0.049 µM"}
{"smiles": "Cc1cn([C@H]2C[C@H](N=[N+]=[N-])[C@@H](CO)O2)c(=O)[nH]c1=O", "strain": "92BR018", "cells": "TZM-bl", "result": "0.016 µM"}
{"smiles": "COc1ccc(-n2c(C)nnc2SCC(=O)Nc2ccccc2Br)c2ccccc12", "mutations": "RT-Y188L", "strain": "NL4-3", "cells": "HeLa + HeLa-JC53", "result": "0.46 µM"}
{"smiles": "CC(C)OC(=O)OCOP(=O)(CO[C@H](C)Cn1cnc2c(N)ncnc21)OCOC(=O)OC(C)C", "strain": "NL4-3", "cells": "PBMC", "result": "0.0023 µM"}
{"smiles": "Cc1ccc(NC(=O)CSc2nnc(C)n2-c2cccc3ccccc23)c(Cl)c1", "mutations": "RT-Y188L", "strain": "NL4-3", "cells": "HeLa + HeLa-JC53", "result": "0.59 µM"}
{"smiles": "Nc1nc2c(ccn2C[C@@H](CF)OCP(=O)(O)O)c(=O)[nH]1", "strain": "NL4-3", "cells": "PBMC", "result": ">100 µM"}
{"smiles": "Cc1ccc(-n2c(C)nnc2SCC(=O)Nc2ccccc2Br)cc1", "mutations": "RT-K103N Y181C", "strain": "NL4-3", "cells": "HeLa + HeLa-JC53", "result": "0.076 µM"}
{"smiles": "COc1ccc(Sc2nc(N)nc3c2ncn3C[C@@H](CF)OP(=O)(O)O)cc1", "strain": "NL4-3", "cells": "PBMC", "result": ">100 µM"}
{"smiles": "Cn1c2ccccc2c2c1cc(C#N)c(=O)n2-c1ccc([N+](=O)[O-])cc1", "strain": "NL4-3 WT", "cells": "HeLa", "result": "0.023 µM"}
{"smiles": "Cc1ccc(NC(=O)CSc2nnc(C)n2-c2ccc(Cl)c3ccccc23)c(Cl)c1", "mutations": "RT-K103N Y181C", "strain": "NL4-3", "cells": "HeLa + HeLa-JC53", "result": "0.19 µM"}

For reference, 3 entries again:

{"smiles": "C[C@H](Cn1cnc2c(N)ncnc21)OCP(=O)(O)O", "strain": "BaL", "cells": "PBMC", "result": "1.69 µM"}
{"smiles": "CC(C)OC(=O)OCOP(=O)(CO[C@H](C)Cn1cnc2c(N)ncnc21)OCOC(=O)OC(C)C", "strain": "NL4-3", "cells": "PBMC", "result": "0.0023 µM"}
{"smiles": "COc1ccc(-n2c(C)nnc2SCC(=O)Nc2ccccc2Br)c2ccccc12", "mutations": "RT-Y188L", "strain": "NL4-3", "cells": "HeLa + HeLa-JC53", "result": "0.46 µM"}